Patent publication EP4162935B1 (UNIVERSIDADE NOVA DE LISBOA, priority 2021, dated 2023)

Tested on: SARS-CoV-2
Assay: SARS-CoV-2 cell infection assay in Vero E6 cells, intracellular ATP levels (CellTiter-Glo) and cytopathic effect
Conditions: concentration with […] absence of virus and most protection from infection, 30 pfu SARS-CoV-2, 72h

Question: `COc1ccc(-c2cc(=O)c3c(O)cc(O)cc3o2)cc1O` [diosmetin, 5,7-Dihydroxy-2-(3-hydroxy-4-methoxyphenyl)-4H-benzopyran-4-one] was tested. Which optimal concentration did it give?
Answer: 45 µM
